Anti-infective test results gathered from many reports (values: NIAID ChemDB through PubChem).

Common to all: tests in culture; species: Herpes simplex virus 1; cells: E6SM; endpoint: EC50

An empty or dashed field is not shown.

structure	strain	method	value
OC[C@H]1O[C@@H](c2cc(/C=C/Br)c(F)cc2F)C[C@@H]1O	F	cytopathic effect	>400 µg/mL
NC1CSCCN2CCc3c([nH]c4ccccc34)[C@H]12	B2006 (TK-)	cytopathic effect	0.04 µg/mL
OC[C@H]1O[C@@H](c2ccc(F)cc2F)C[C@@H]1O	KOS/ACV-R	cytopathic effect	>400 µg/mL
O=c1[nH]c(=O)n([C@H]2C[C@H](O)[C@@H](CO)O2)cc1I		cytopathic effect	0.2 µg/mL
OC[C@H]1O[C@@H](c2cc(C(O)CBr)c(F)cc2F)C[C@@H]1O	KOS (TK-)	cytopathic effect	>3.2 µg/mL
COC(=O)[C@]1(C)CCC[C@]2(C)c3ccc4[nH]c(C(F)(F)F)nc4c3CCC12		plaque count	>4 µg/mL
Cc1cccn2c(C3SCCS3)cnc12	VMW 1837 (TK+/TK-)		>1000 µM
Nc1ncnc2c1ncn2[C@@H]1O[C@H](COP(=O)([O-])OP(=O)([O-])OC[C@@H]2OC(O)[C@H](O)[C@H](O)[C@H]2O)[C@@H](O)[C@H]1O		cytopathic effect	30 µg/mL
CC1(CO)CCC(Cn2nnc3c(N)nc(N)nc32)C1(C)C	KOS	cytopathic effect	>400 µg/mL
CO[C@@H]1[C@H](O)[C@@H](CO)O[C@H]1c1ccccc1	KOS	cytopathic effect	>400 µg/mL
COC(=O)[C@]1(C)CCC[C@]2(C)c3cc(Br)c4nc(C(F)(F)F)[nH]c4c3CCC12		plaque count	>4 µg/mL
Nc1nc2c(ncn2[C@H]2OC[C@@H](CO)C2O)c(=O)[nH]1	KOS TK- acyclovir-resistant	cytopathic effect	240 µg/mL
Nc1nc2c(ncn2C[C@@H](CF)OCP(=O)(O)O)c(=O)[nH]1	KOS F McIntyre	cytopathic effect	165 µM
N#Cc1cc([C@H]2C[C@H](O)[C@@H](CO)O2)c(F)cc1F	F	cytopathic effect	>400 µg/mL
Cc1ccn2c(CSCCO)cnc2c1	VMW1837 (TK-)	cytopathic effect	>200 µg/mL
Nc1ncnc2c1ncn2[C@@H]1C=C(CO)[C@@H](O)[C@H]1O	KOS	cytopathic effect	70 µg/mL
CC(C)CS[C@@H]1C=C[C@H](n2cnc3c(N)ncnc32)C1	KOS	cytopathic effect	>16 µg/mL
O=c1[nH]c(=O)n([C@H]2C[C@H](O)[C@@H](COP(=O)([O-])OP(=O)([O-])OC[C@@H]3OC(O)[C@H](O)[C@H](O)[C@H]3O)O2)cc1I	KOS	cytopathic effect	0.4 µg/mL
OC[C@H]1O[C@@H](c2cc(C(F)(F)F)c(F)cc2F)C[C@@H]1O	KOS	cytopathic effect	>400 µg/mL
O=c1c2ncn(COC(CO)CO)c2nc2[nH]c(-c3ccccc3)cn12	B2006 (TK-)	cytopathic effect	>30 µg/mL
COc1cc(F)c([C@H]2C[C@H](O)[C@@H](CO)O2)cc1[N+](=O)[O-]	F	cytopathic effect	>400 µg/mL
NC(=O)CSc1ncnc2c1cnn2COCCO	B2006 (TK-)	cytopathic effect	>400 µg/mL
CC1(C)[C@@H](CCO)C[C@H]1n1nnc2c(Cl)nc(N)nc21	KOS	cytopathic effect	>100 µg/mL
Cc1ccn2c(C3SCCS3)cnc2c1	B2006 (TK-)		>1000 µM
Nc1cc(OC[C@H](CO)OCP(=O)(O)O)nc(N)n1	KOS	cytopathic effect	4.8 µM
OC[C@H]1O[C@H](c2cc(Br)c(F)cc2F)C[C@@H]1O	KOS	cytopathic effect	>400 µg/mL
COC(=O)[C@]1(C)CCC[C@]2(C)c3ccc4[nH]c(C)nc4c3CCC12		plaque count	>4 µg/mL
Nc1ncnc2c1ncn2C[C@H](CF)OCP(=O)(O)O	KOS F McIntyre	cytopathic effect	>1200 µM
NC(=O)CSc1ncnc2c1cnn2CCCCO	B2006 (TK-)	cytopathic effect	>400 µg/mL
COc1cc2c(cc1OC)[C@@H]1C(N)CSCON1CC2	KOS	cytopathic effect	0.1 µg/mL
CC(C)(C)c1cn([C@H]2C[C@H](O)[C@@H](CO)O2)c(=O)[nH]c1=O	KOS McIntyre F	cytopathic effect	253 µM
Nc1nc(N)c2ncn(C[C@@H](CO)OCP(=O)(O)O)c2n1	KOS F McIntyre	cytopathic effect	0.22 µM
OC[C@H]1O[C@@H](c2cc(C(O)C(I)I)c(F)cc2F)C[C@@H]1O	KOS	cytopathic effect	>80 µg/mL
C[C@@]1(O)[C@@H](CO)O[C@@H](n2cnc3c(N)ncnc32)[C@@H]1O	KOS	cytopathic effect	10 µg/mL
Cc1ccn2c(C(SCCc3ccccc3)SCCc3ccccc3)cnc2c1	VMW 1837 (TK+/TK-)		>1000 µM
COC(=O)C(C)(C)NP(=O)(OC[C@H]1O[C@@H](n2cc(/C=C/Br)c(=O)[nH]c2=O)C[C@@H]1O)Oc1ccccc1	KOS TK- acyclovir-resistant	cytopathic effect	>240 µM
CO[C@H](CO)[C@@H](O)CCn1cc(C)c(=O)[nH]c1=O	F	cytopathic effect	>400 µg/mL
O=c1[nH]c(=O)n([C@@H]2O[C@H](CO)[C@@H](O)[C@@H]2O)cc1/C=C/Br	KOS	virus yield	1 µM
CC1(CO)CCC(Cn2cnc3c(=O)[nH]cnc32)C1(C)C	TK-/B2006	cytopathic effect	>200 µg/mL
C=C[C@H](O)C1=C[C@@H](n2cnc3c(N)ncnc32)[C@H](O)[C@@H]1O	B2006 (TK-)	cytopathic effect	>100 µg/mL
OC[C@H]1O[C@H](c2cncc(Br)c2)[C@@H](O)[C@H]1O	KOS	cytopathic effect	≥100 µg/mL
CC1(CO)CCC(Cn2cnc3c(Cl)nc(N)nc32)C1(C)C	KOS	cytopathic effect	>100 µg/mL
CCC(Sc1ncnc2c1cnn2COCCO)C(N)=O	B2006 (TK-)	cytopathic effect	>400 µg/mL
Cc1cc([C@@H]2C[C@H](O)[C@@H](CO)O2)c(Cl)cc1F	McIntyre	cytopathic effect	>400 µg/mL
N#Cc1cncc([C@H]2O[C@H](CO)[C@@H](O)[C@@H]2O)c1	KOS	cytopathic effect	≥100 µg/mL
O=c1[nH]c(=O)n([C@H]2C[C@H](O)[C@@H](CO)O2)cc1/C=C/Br	KOS	cytopathic effect	0.001 µM
Cc1cn([C@H]2OC[C@@H](CO)C2F)c(=O)[nH]c1=O	KOS	cytopathic effect	>80 µg/mL
NC(=O)c1cncc([C@@H]2O[C@H](CO)[C@H](O)[C@@H]2O)c1	KOS	cytopathic effect	≥100 µg/mL
CC1(C)[C@@H](CCO)C[C@H]1n1nnc2c(=O)[nH]c(N)nc21	TK-/VMW 1837	cytopathic effect	300 µg/mL
C[C@H](Cn1cnc2c(N)nc(N)nc21)OCP(=O)(O)O	KOS F McIntyre	cytopathic effect	496 µM
Cc1cn([C@@H]2OC[C@H](CO)[C@H]2N=[N+]=[N-])c(=O)[nH]c1=O	KOS TK- acyclovir-resistant	cytopathic effect	240 µg/mL
Cc1cn(CC[C@H](O)CCO)c(=O)[nH]c1=O	VMW1837 (TK-)	cytopathic effect	>400 µg/mL
C=C[C@@H](O)C1=C[C@@H](n2cnc3c(N)ncnc32)[C@H](O)[C@@H]1O	B2006 (TK-)	cytopathic effect	>200 µg/mL
CCc1cc([C@H]2C[C@H](O)[C@@H](CO)O2)c(F)cc1F	KOS	cytopathic effect	>400 µg/mL
CO[C@H]1[C@H]2O[Si](C(C)C)(C(C)C)O[Si](C(C)C)(C(C)C)OC[C@@H]2O[C@@H]1c1ccccc1	KOS	cytopathic effect	>16 µg/mL
O=[N+]([O-])c1cc([C@H]2C[C@H](O)[C@@H](CO)O2)c(F)cc1F	F	cytopathic effect	>400 µg/mL
Nc1ncc2ncn(C[C@@H](CF)OCP(=O)(O)O)c2n1	KOS F McIntyre	cytopathic effect	>600 µM
O=c1ccn([C@@H]2O[C@H](CO)[C@](O)(C(F)(F)F)[C@H]2O)c(=O)[nH]1	KOS	cytopathic effect	200 µg/mL
CC1(C)[C@@H](CCO)C[C@H]1n1cnc2c(N)ncnc21	TK-/B2006	cytopathic effect	70 µg/mL
Nc1nc2c(ncn2C[C@H](CF)OCP(=O)(O)O)c(=O)[nH]1	KOS F McIntyre	cytopathic effect	165 µM
O=c1[nH]c(=O)n([C@H]2C[C@H](O)[C@@H](CO)O2)cc1C1CC1	KOS McIntyre F	cytopathic effect	59 µM
[N-]=[N+]=NC(CBr)c1cc([C@H]2C[C@H](O)[C@@H](CO)O2)c(F)cc1F	KOS ACV-R (TK-)	cytopathic effect	>400 µg/mL
CO[C@H](CO)[C@@H](O)CCn1ccc(N)nc1=O	VMW1837 (TK-)	cytopathic effect	>400 µg/mL
CC1(CO)CCC(Cn2nnc3c(Cl)nc(N)nc32)C1(C)C	KOS	cytopathic effect	>100 µg/mL

For reference, 6 entries again:

structure	strain	method	value
CC1(CO)CCC(Cn2nnc3c(N)nc(N)nc32)C1(C)C	KOS	cytopathic effect	>400 µg/mL
CC1(CO)CCC(Cn2nnc3c(Cl)nc(N)nc32)C1(C)C	KOS	cytopathic effect	>100 µg/mL
OC[C@H]1O[C@@H](c2cc(/C=C/Br)c(F)cc2F)C[C@@H]1O	F	cytopathic effect	>400 µg/mL
Nc1ncnc2c1ncn2[C@@H]1O[C@H](COP(=O)([O-])OP(=O)([O-])OC[C@@H]2OC(O)[C@H](O)[C@H](O)[C@H]2O)[C@@H](O)[C@H]1O		cytopathic effect	30 µg/mL
OC[C@H]1O[C@H](c2cc(Br)c(F)cc2F)C[C@@H]1O	KOS	cytopathic effect	>400 µg/mL
CO[C@H]1[C@H]2O[Si](C(C)C)(C(C)C)O[Si](C(C)C)(C(C)C)OC[C@@H]2O[C@@H]1c1ccccc1	KOS	cytopathic effect	>16 µg/mL

ECn: concentration that inhibits the pathogen or its effect by n%. Neighbouring rows are from separate reports.